# PubChem BioAssay AID2303 (GlaxoSmithKline (GSK), 2010)
# The entries are a selection whose mix differs from that of the whole data set. Calls of active or inactive are those of the source.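 Rule for the calls: active = inhibition above 50%; inactive = the rest.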
# Assay: HepG2 cytotoxicity, primary screen, cytotoxicity control for P. falciparum antimalarial project, cell-based, ATP luminescence (AID 2303);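 note: 0% = DMSO wells and 100% = digitonin-killed cells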
# Details: HepG2 viability, 24-48 h, at 10 µM, hits give high values
row,Compound,inhibition
1,Cn1c(=O)n(C2CCN(CCCC(c3ccc(F)cc3)c3ccc(F)cc3)CC2)c2ccccc21,inactive: 18%
2,CC(C)(C)c1cc2cc(N(C(=O)c3ccc(C(F)(F)F)cc3)C3CCN(Cc4ccccc4)CC3)ccc2[nH]1,inactive: 2%
